Assay results published in publication PMC4216207 (Journal of Medicinal Chemistry, 2014).

system: lentiviral vector harboring WT IN; format: cell-based, HIV-1

SMILES | SI (selectivity index)
O=C(NCc1ccc(F)cc1F)c1c(Nc2ccccc2)c2cccnc2n(O)c1=O [5e, N-(2,4-Difluorobenzyl)-1-hydroxy-2-oxo-4-(phenylamino)-1,2-dihydro-1,8-naphthyridine-3-carboxamide] | >17857
CNc1c(C(=O)NCc2ccc(F)cc2F)c(=O)n(O)c2ncccc12 [5f, N-(2,4-Difluorobenzyl)-1-hydroxy-4-(methylamino)-2-oxo-1,2-dihydro-1,8-naphthyridine-3-carboxamide] | >80645
O=C(NCc1ccc(F)cc1F)c1c(NCCc2ccccc2)c2cccnc2n(O)c1=O [5j, N-(2,4-Difluorobenzyl)-1-hydroxy-2-oxo-4-(phenethylamino)-1,2-dihydro-1,8-naphthyridine-3-carboxamide] | >17857
CC(C)Nc1c(C(=O)NCc2ccc(F)cc2F)c(=O)n(O)c2ncccc12 [5m, N-(2,4-Difluorobenzyl)-1-hydroxy-4-(isopropylamino)-2-oxo-1,2-dihydro-1,8-naphthyridine-3-carboxamide] | >34722
